Anti-infective test results gathered from many reports (values: NIAID ChemDB through PubChem).

Common to all: whole-cell or culture tests; species: HIV-2; cells: MT-4; measure: EC50

Blank or dashed fields: not listed here. a–b is a range or a potency band. Neighbouring rows are from separate reports. ECn: concentration that inhibits the pathogen or its effect by n%.

| smiles | strain | read by | result |
|---|---|---|---|
| CCOC(=O)CNc1nc(NC(=O)Nc2ccc(OC)cc2)nc(Oc2cc(=O)oc3ccccc23)n1 | ROD | MTT | >85.9 µg/mL |
| CCOc1ccccc1CCNC(=S)Nc1nccs1 | - | cytopathic effect / XTT | <1 µg/mL |
| Nc1ccc(-c2nnc3sc(-c4cc5ccccc5oc4=O)nn23)cc1 | ROD | MTT | >108.3 µg/mL |
| O=C(NCCc1ccccc1)Nc1nc2ccc(F)cc2s1 | - | RT activity | <1 µg/mL |
| Nn1c(-c2ccc(O)c(Cl)c2Cl)n[nH]c1=S | ROD | MTT | >72.83 µg/mL |
| Cc1cc(C#N)cc(C)c1Oc1nc(Nc2ccc(C#N)cc2)ncc1SCC(=O)NCCCN1CCOCC1 | ROD | MTT | >27.1 µM |
| Clc1ccc(-c2nnc3sc(-c4ccc[nH]4)nn23)cc1Cl | ROD | MTT | >68.48 µg/mL |
| COC(=O)CSc1cnc(Nc2ccc(C#N)cc2)nc1Oc1c(C)cc(C#N)cc1C | ROD | MTT | >3.32 µM |
| C=C(C)[C@@H]1CC[C@]2(C(=O)NCCCCCCCC(=O)N[C@@H](CC(C)C)[C@@H](O)CC(=O)O)CC[C@]3(C)[C@H](CC[C@@H]4[C@@]5(C)CC[C@H](O)C(C)(C)[C@@H]5CC[C@]43C)[C@@H]12 | ROD | cytopathic effect / MTT | >10 µM |
| Cc1cc(C#N)cc(C)c1Oc1nc(Nc2ccc(C#N)cc2)ncc1SCC(=O)N1CC[C@H](NC(=O)OC(C)(C)C)C1 | ROD | MTT | >24.7 µM |
| CC1CCC(C(C)C)/C(=N/NC(=S)Nc2cccc(Cl)c2)C1 | ROD | - | >44.6 µg/mL |
| Cc1cccc(Nc2ccccc2C(=O)Nc2ccc(-c3cc(-c4ccc(N(C)C)cc4)nc(=S)[nH]3)cc2)c1C | ROD | MTT / absorbance | >7.02 µM |
| N#Cc1csc(NC(=O)NCCc2ccccc2)n1 | - | RT activity | <0.1 µg/mL |
| Cc1cccc(Nc2ccccc2C(=O)Nc2ccc(C(=O)/C=C/c3ccc(Cl)cc3)cc2)c1C | ROD | MTT / absorbance | >2.17 µM |
| O=S1(=O)N=C(OCc2ccc(Cl)cc2)c2ccccc2N1Cc1ccc(Cl)cc1 | ROD | cytopathic effect | >10 µM |
| O=C1[C@@H](Cc2ccc(O)cc2)NC(=S)N1c1ccccc1 | - | cytopathic effect / XTT | <100 µg/mL |
| Cc1cc(C#N)cc(C)c1Oc1nc(Nc2ccc(C#N)cc2)ncc1SCC(=O)NC1CCN(C(=O)OC(C)(C)C)CC1 | ROD | MTT | >204 µM |
| CC(C)[C@@H]1CC[C@@H](C)C/C1=N\NC(N)=S | ROD | - | >12.7 µg/mL |
| NC1=Nn2c(nnc2-c2ccc(Cl)c(Cl)c2)SC1 | ROD | MTT | >2.7 µg/mL |
| CC1CCC(C(C)C)/C(=N/NC(=O)Nc2ccc(Cl)cc2)C1 | ROD | - | >28.4 µg/mL |
| O=C1[C@@H](Cc2ccccc2)NC(=S)N1c1ccccc1 | - | RT activity | <100 µg/mL |
| Oc1ccc(-c2nnc3sc(-c4ccc[nH]4)nn23)c(Cl)c1Cl | ROD | MTT | >68.48 µg/mL |
| COc1ccc(NC(=O)Nc2nc(NCCc3ccc(OC)c(OC)c3)nc(Oc3cc(=O)oc4ccccc34)n2)cc1 | ROD | MTT | >61.6 µg/mL |
| O=S1(=O)N=C(OCc2ccccc2)c2ccccc2N1Cc1ccccc1 | ROD | cytopathic effect | 20 µM |
| O=c1c2ccccc2nc2sc(Nc3ccccc3)nn12 | ROD | cytopathic effect / MTT | 42.9 µg/mL |
| Cc1cc(C#N)cc(C)c1Oc1nc(Nc2ccc(C#N)cc2)ncc1SCC(=O)NCC1CC1 | ROD | MTT | 20.7 µM |
| Oc1ccc(-c2nnc3sc(-c4ccc(O)c(Cl)c4Cl)nn23)cc1Br | ROD | MTT | >4.12 µg/mL |
| COC(=O)CCSc1cnc(Nc2ccc(C#N)cc2)nc1Oc1c(C)cc(C#N)cc1C | ROD | MTT | >34.7 µM |
| O=C1c2ccccc2N(Cc2ccccc2)S(=O)(=O)N1Cc1ccccc1Cl | ROD | cytopathic effect | 4–11 µM |
| Cc1cccc(Nc2ccccc2C(=O)Nc2ccc(C(=O)/C=C/c3ccccc3)cc2)c1C | ROD | MTT / absorbance | >125 µM |
| O=C1c2ccccc2N(Cc2ccccc2Cl)S(=O)(=O)N1Cc1ccccc1Cl | ROD | cytopathic effect | >2 µM |
| CN1C(=O)[C@@H](Cc2ccccc2)NC1=S | - | RT activity | <100 µg/mL |
| Cc1cccc(Nc2nn3c(=O)c4ccccc4nc3s2)c1 | ROD | cytopathic effect / MTT | 32 µg/mL |
| O=C(NCCc1ccccc1)Nc1nc2ccc(Cl)cc2s1 | - | RT activity | <1 µg/mL |
| CCOC(=O)CNc1nc(Nc2ccc(C)cc2)nc(Oc2cc(=O)oc3ccccc23)n1 | ROD | MTT | >45.53 µg/mL |
| O=C1CSc2nnc(-c3ccc(Cl)c(Cl)c3)n2N1 | ROD | MTT | >35.23 µg/mL |
| O=C1c2ccccc2N(Cc2ccccc2Cl)S(=O)(=O)N1COCc1ccccc1 | ROD | cytopathic effect | 17.9–32.1 µM |
| CCOC(=O)CNc1nc(NC(=O)Nc2ccc3ccccc3c2)nc(Oc2cc(=O)oc3ccccc23)n1 | ROD | MTT | >125 µg/mL |
| Cc1cccc(Nc2ccccc2C(=O)Nc2ccc(-c3cc(-c4ccccc4)nc(=S)[nH]3)cc2)c1C | ROD | MTT / absorbance | >13.9 µM |

3 of the rows above, restated:

smiles,strain,read by,result
Cc1cccc(Nc2nn3c(=O)c4ccccc4nc3s2)c1,ROD,cytopathic effect / MTT,32 µg/mL
C=C(C)[C@@H]1CC[C@]2(C(=O)NCCCCCCCC(=O)N[C@@H](CC(C)C)[C@@H](O)CC(=O)O)CC[C@]3(C)[C@H](CC[C@@H]4[C@@]5(C)CC[C@H](O)C(C)(C)[C@@H]5CC[C@]43C)[C@@H]12,ROD,cytopathic effect / MTT,>10 µM
CC(C)[C@@H]1CC[C@@H](C)C/C1=N\NC(N)=S,ROD,-,>12.7 µg/mL